Compound potency records, mixed from different reports. Data source: NIAID ChemDB in PubChem.

All rows: tests in culture; agent: Candida albicans; measure: EC50

Blank or dashed fields: not listed here.

smiles,strain,method,result
Cc1cc2c(c(O)c1-c1c(C)cc(O)c3c1C(=O)C=CC3=O)C(=O)CC[C@H]2O,-,-,>20 µg/mL
O=S(c1ccccc1)c1c(Sc2ccc(Br)cc2)c(O)c2ccccc2c1O,-,-,>0.2 µg/mL
C=C(CN1CCN(C)CC1)C(=O)c1ccccc1,-,-,2.32 µM
COc1cc(OC)c2c(c1)OC(c1ccccc1)CC2=O,-,-,>50 µg/mL
Cn1c2ccccc2c2c1cc1cc(Br)ccc1[n+]2C,ATCC 90028,-,3.1 µg/mL
CC(=O)C1=C2C=C3C=C(/C=C/C(C)=C/[C@@H](C)CCO)OC=C3[C@@H](O)[C@]2(C)OC1=O,-,-,24.3 µg/mL
C[C@H]1[C@H](O)[C@@H](C)/C=C/C=C/C=C/C=C/C=C/C=C/C=C/[C@H](O[C@@H]2O[C@H](C)[C@@H](O)[C@H](N)[C@@H]2O)C[C@@H]2O[C@](O)(C[C@@H](O)C[C@@H](O)CC[C@H](O)[C@@H](O)C[C@@H](O)CC(=O)O[C@H]1C)C[C@H](O)[C@H]2C(=O)O,27,broth dilution,1 µM
COc1ccc2c(c1)cc1c(c3ccccc3n1C)[n+]2C,ATCC 90028,-,2.1 µg/mL
CC(C)[C@@H]1CC=CC2C3[C@@](C)(C=CC(=O)[C@@]3(C)O)CC[C@@]21CBr,ATCC 10231,-,>100 µM
O=C1C(Nc2ccccc2)=C(S(=O)c2ccccc2)C(=O)c2ccccc21,-,-,>0.2 µg/mL
O[C@](Cn1cncn1)(Cn1cnc(/C=C/c2ccc(OCC(F)(F)C(F)F)cc2)n1)c1ccc(F)cc1F,CA505,-,0.3 µM
Brc1ccc2[nH+]c3c4ccccc4n(CCCCCC4CCCCC4)c3cc2c1,ATCC 90028,-,>50 µg/mL
O=C1C(Nc2ccc([N+](=O)[O-])cc2)=C(S(=O)c2ccccc2)C(=O)c2ccccc21,-,-,>0.2 µg/mL
COc1cc(NC(C)CCCNC(=O)[C@@H](CCCN)NC(=O)[C@H](N)CCCN)c2ncccc2c1,-,broth dilution,>20 µg/mL
C[C@H]1COC(=O)C2OC2=CC[C@H](O)[C@@H]1O,-,absorbance,7 µg/mL
Fc1ccc2[nH+]c3c4ccccc4n(CCCCCC4CCCCC4)c3cc2c1,ATCC 90028,-,>50 µg/mL
O=c1cc(-c2ccccc2)oc2cc(O)cc(O)c12,-,-,>50 µg/mL
CCCCCCn1c(-c2ccc([N+](=O)[O-])cc2)cc(C(=O)N(CCO)CCO)c1C,20 strains,-,>200 µg/mL
C=C(CN1CCN(C)CC1)C(=O)c1ccc(Cl)cc1,-,-,1.48 µM
COc1ccc(SC2=C(Sc3ccc(OC)cc3)C(=O)c3ccccc3C2=O)cc1,-,-,>0.2 µg/mL
COc1ccc2[nH+]c3c4ccccc4n(CCCCCC4CCCCC4)c3cc2c1,ATCC 90028,-,>50 µg/mL
COc1cc(OC)c2c(c1)OC(c1ccccc1)CC2,-,-,>50 µg/mL
CC(=O)N1CCN(c2ccc(OC[C@H]3CO[C@](Cn4ccnc4)(c4ccc(-c5ccccc5)cc4)O3)cc2)CC1,44 strains,-,>256 µg/mL
COc1cc(NC(C)CCCNC(=O)CCC(NC(=O)[C@H](N)CCCCN)C(=O)O)c2nc(C(C)(C)C)ccc2c1,-,broth dilution,>20 µg/mL
O=C(OC[C@H]1CO[C@](Cn2ccnc2)(c2ccc(-c3ccccc3)cc2)O1)c1ccccc1,44 strains,-,8 µg/mL
COc1cc(NC(C)CCCNC(=O)[C@@H](CCCCN)NC(=O)[C@H](N)CCCCN)c2nc(C(C)(C)C)ccc2c1,-,broth dilution,>20 µg/mL
C[n+]1c2ccccc2cc2c1c1ccccc1n2CCCCCc1ccccc1,ATCC 90028,-,>20 µg/mL
CCCCCCCCn1c(-c2ccc([N+](=O)[O-])cc2)cc(C(=O)N(CCO)CCO)c1C,20 strains,-,>200 µg/mL
C=C(CN(C)C)C(=O)c1ccccc1,-,-,1.13 µM
Cc1c(C(=O)N(CCO)CCO)cc(-c2ccc([N+](=O)[O-])cc2)n1-c1ccc(Cl)cc1Cl,20 strains,-,>200 µg/mL
Oc1cccc2c1[C@H](O)[C@H]1O[C@H]1C21Oc2cccc3cccc(c23)O1,-,-,>20 µg/mL
Cn1c2ccccc2c2c1cc1cc(Br)ccc1[n+]2CCCCCc1ccccc1,ATCC 90028,-,43 µg/mL
C[C@H]1[C@H](O)[C@@H](C)/C=C/C=C/C=C/C=C/C=C/C=C/C=C/[C@H](O[C@@H]2O[C@H](C)[C@@H](O)[C@H](N)[C@@H]2O)C[C@@H]2O[C@](O)(C[C@@H](O)C[C@@H](O)CC[C@H](O)[C@@H](O)C[C@@H](O)CC(=O)O[C@H]1C)C[C@H](O)[C@H]2C(=O)O,ATCC 10231,-,>100 µM
COc1cc(NC(C)CCCNC(=O)CC(NC(=O)[C@H](N)CCCN)C(=O)O)c2ncccc2c1,-,broth dilution,>20 µg/mL
CCCCCCCCCCn1c(-c2ccc([N+](=O)[O-])cc2)cc(C(=O)N(CCO)CCO)c1C,20 strains,-,>200 µg/mL
CC(C)[C@@H]1CC=CC2C3[C@](C)(O)[C@H](O)C[C@H](Br)[C@@]3(C)CC[C@@]21CBr,ATCC 10231,-,>100 µM
COc1ccc(Sc2c(S(=O)c3ccccc3)c(O)c3ccccc3c2O)cc1,-,-,>0.2 µg/mL
Cc1c(C(=O)N2CCN(C)CC2)cc(-c2ccc([N+](=O)[O-])cc2)n1C,20 strains,-,>200 µg/mL
OC[C@H]1CO[C@](Cn2ccnc2)(c2ccc(-c3ccccc3)cc2)O1,44 strains,-,32 µg/mL

A second listing of 3 rows from above:

smiles	strain	method	result
CC(C)[C@@H]1CC=CC2C3[C@@](C)(C=CC(=O)[C@@]3(C)O)CC[C@@]21CBr	ATCC 10231	-	>100 µM
COc1ccc2c(c1)cc1c(c3ccccc3n1C)[n+]2C	ATCC 90028	-	2.1 µg/mL
CC(=O)N1CCN(c2ccc(OC[C@H]3CO[C@](Cn4ccnc4)(c4ccc(-c5ccccc5)cc4)O3)cc2)CC1	44 strains	-	>256 µg/mL

ECn: concentration that inhibits the pathogen or its effect by n%. Rows are shuffled and stem from different studies.